Measured values published in PMC6757032 (Nature Communications, 2019).

Biological target: T1, full-length syntaxin-1A S186C-TMR (cysteine-free background C145A, C271A, C272A) (rat, S186C | C145A | C271A | C272A, tetramethylrhodamine on the cysteine at residue 186)
T1 construct: syntaxin-1A, rat, full length, S186C in the cysteine-free protein (C145A, C271A, C272A); The FRET acceptor chain of the trans-SNARE complex assays; it always stood together with SNAP-25; also called TMR-syntaxin-1A; TMR-syntaxin-1; source: E. coli BL21(DE3), purified as the unmodified construct, labelled, reconstituted in T-liposomes together with SNAP-25
Assay: FRET or BRET; kinetics of trans-SNARE complex assembly: donor fluorescence of V-liposomes with synaptobrevin-2 L26C-Alexa-488 on mixing with T-liposomes with syntaxin-1A S186C-TMR and SNAP-25 M71D,L78D (1:4), 10 µM Syb49–93, 0.3 µM Munc13-1 C1C2BMUNC2C, with or without 2 µM αSNAP; 37 °C, 25 mM HEPES pH 7.4, 150 mM KCl, 1 mM TCEP
Details: both partners purified

B1: full-length synaptobrevin-2 L26C-Alexa-488 (cysteine-free background C103A), on V-liposomes (natural protein)
chain: not shown
modifications: Alexa-488 on the cysteine at residue 26
notes: synaptobrevin-2, rat, full length, L26C in the cysteine-free (C103A) protein; also called Alexa-488-synaptobrevin; Alex488-synaptobrevin
B1: binds.
